B1: unnamed (parent)
chain 1: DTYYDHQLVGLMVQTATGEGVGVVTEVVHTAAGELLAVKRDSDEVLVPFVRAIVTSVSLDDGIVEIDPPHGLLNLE
chain 2: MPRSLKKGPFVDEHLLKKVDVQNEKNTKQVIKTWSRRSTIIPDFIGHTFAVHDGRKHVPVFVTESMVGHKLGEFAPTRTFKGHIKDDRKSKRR

Variants of: B1
Test: SPR
Conditions: with partner chain of the complex shown; parent: 2.16e+03 nM

Variant | Kd
chain 1 E34A | 3.82 µM
chain 1 E26A | 5.16 µM
chain 1 E44A | 5.05 µM

Reference: article PMC8073977
